{"source": "patent US12109253B2", "about": "“Use of IGFBP7 for treating malaria” (AGENCY FOR SCIENCE, TECHNOLOGY AND RESEARCH, priority 2019, dated 2024)", "test": "Plasma IGFBP7 levels, Malawian clinical study", "parameters": "species or system human"}
{"substance": "insulin-like growth factor binding protein 7 [IGFBP7]", "values": [{"measurement": "plasma IGFBP7 levels (mean)", "setting": "17 paediatric uncomplicated falciparum malaria patients", "result": "100.5 ± 17.88", "unit": "ng/mL"}, {"measurement": "plasma IGFBP7 levels (mean)", "setting": "paediatric cerebral malaria patients", "result": "53.29 ± 18.38", "unit": "ng/mL"}, {"measurement": "plasma IGFBP7 levels (mean)", "setting": "uninfected controls", "result": "54.59 ± 16.80", "unit": "ng/mL"}]}
